Source: paper PMC11500311, “Binding of a single nitric oxide molecule is sufficient to disrupt DNA binding of the nitrosative stress regulator NsrR†” (Chemical Science, 2024)
For at least one entry, the source does not settle the construct or the ends of the probe. For part of these data: No signal at the amounts used counts as a negative. For part of these data: Tags and fusion partners may be left off the protein sequences shown.

Legend:
[1] = biological target: mono-nitrosylated holo NsrR (Streptomyces coelicolor) (UniProt Q9L132); experiment: native MS; conditions: NO from DEA NONOate, mono-nitrosylated complex not observed; native MS: 100 mM ammonium acetate pH 8 (30 C for nitrosylation); recombinant protein
[2] = biological target: T1, holo NsrR ([4Fe-4S] in each subunit) (Streptomyces coelicolor) (UniProt Q9L132); experiment: native MS; conditions: second DNA molecule, non-specific complex, 100 mM ammonium acetate pH 8; native MS: 100 mM ammonium acetate pH 8 (30 C for nitrosylation); recombinant protein
T1 sequence (looked up, limits assumed): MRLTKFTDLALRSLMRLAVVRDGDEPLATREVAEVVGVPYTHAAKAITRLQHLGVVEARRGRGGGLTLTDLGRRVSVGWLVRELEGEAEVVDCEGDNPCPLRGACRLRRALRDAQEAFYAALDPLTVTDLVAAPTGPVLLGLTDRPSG

[3] = biological target: T1, holo NsrR ([4Fe-4S] in each subunit) (Streptomyces coelicolor); experiment: SPR; conditions: reference surface, negligible binding; SPR: 10 mM HEPES, 150 mM NaCl, 0.05% polysorbate 20, pH 7.4, 25 C, anaerobic; recombinant protein; label: 5' biotin; single-stranded DNA

“AACAAGCATCTGAGATCCCAGTT (double strand) [hmpA2 23 bp native MS]”: no binding [1].

In the case of “AACACGAATATCATCTACCAAT (double strand) [hmpA1 22 bp native MS]”, the Kd [2] is reported as 170 µM.

“GCAGGAGGACGTAGGGTAGG [ReDCaT probe (reference surface)]”: no binding [3].
